Reference: patent US8778876B2, “Small-molecule inhibitors of Dengue and West Nile virus proteases” (The Board of Regents of the University of Texas System, priority 2011, dated 2014)
Like-named read-outs stand apart in the source and are kept apart here.

Amino acid sequences for entries named in this document (tags omitted). Residues count along the entry.
UniProt P06935, 1502-1679 limits assumed: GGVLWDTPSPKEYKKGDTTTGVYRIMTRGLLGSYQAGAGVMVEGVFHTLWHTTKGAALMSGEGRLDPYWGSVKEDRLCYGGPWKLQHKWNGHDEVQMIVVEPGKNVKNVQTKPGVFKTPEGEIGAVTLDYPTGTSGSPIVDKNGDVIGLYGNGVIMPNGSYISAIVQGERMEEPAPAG
UniProt P06935, 1424-1463 partner limits assumed: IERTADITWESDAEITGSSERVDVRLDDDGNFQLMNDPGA

How the values were obtained:
WNV NS2B-NS3pro = WNV NS2B-NS3pro (West Nile virus, UniProt P06935); test: Steady-state kinetics of inhibitors of WNV NS2B-NS3pro; conditions: read-out: Ki1 (from biochemical protease inihibition experiments) West Nile virus NS2B-NS
DEN2V NS2B-NS3pro = DEN2V NS2B-NS3pro (Dengue virus type 2, UniProt Q91H74); test: Steady-state kinetics of inhibitors of DEN2V NS2B-NS3pro (Boc-GRR-AMC substrate, Dynafit); format: biochemical, Dengue 2 virus

In the case of `Cc1cc(O)c2c(c1)C(=O)c1cc(O)cc(O)c1C2=O`, the Ki (WNV NS2B-NS3pro) is reported as 1040 µM, the Ki (DEN2V NS2B-NS3pro; read-out: DEN2V NS2B-NS3 Ki1, second series analogs) is reported as 508 µM and the Ki (DEN2V NS2B-NS3pro; read-out: Ki1 (from biochemical protease inihibition experiments) Dengue 2 virus NS2B-NS3) is reported as 508 µM. The “DEN2V NS2B-NS3 Mechanism” value (DEN2V NS2B-NS3pro; second series analogs) was “Competitive”.
